# Read-outs that look alike come from different tables or passages of the source.
# What was measured:
# [1] = target: ACM1-FKBP fusion, purified (Bordetella pertussis | not stated); assay: adenylate cyclase activation titration (enzyme activity)
# [2] = target: ACM1-FKBP fusion, purified (Bordetella pertussis | not stated); assay: as above; remark: listed apart in the source
substance,measurement,setting,value
"CaM-FRB fusion, purified (FRB at the N-terminus of calmodulin)",Kd,[1],> 5 µM
same,Kd,[2],0.749 µM

# Source: article PMC13334617
